PubChem BioAssay AID1224833 – University of Georgia – 2016
Purpose: 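Host factors restraining rotavirus as candidate antiviral genes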 (primary screen). System: monkey MA104 kidney cells. Knock-down reagent: siRNA pool against human genes, 50 nM. Timing: 48 h knock-down before infection; read 24 h after infection. Conditions: infection with rotavirus strain RV3 two days after transfection; infectious dose for this stage not given. Measurement: 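Rotavirus antigen per well by fluorescent immunoassay, normalised to non-targeting control wells on each plate and given as a standard z-score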. Direction: z-score vs non-targeting control: higher = more rotavirus replication than with non-targeting control. Hit rule: In these data the active calls have z-score vs non-targeting control at about -1 or lower, or at about 1 or higher. Meaning of the calls: active = z-score beyond 1 either way; inactive = z-score within 1 of zero.
In all, the deposit lists about 12,000 reagents; shown is a random part of them. About 5,600 of them (46%) count as active. 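Active calls cover z-scores past 1 in both directions, so they include lowered as well as raised rotavirus replication.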 Unmarked entries are inactive.

Gene | z-score vs non-targeting control
FAM184A (family with sequence similarity 184 member A) | 0.465
BCORL1 (BCL6 corepressor like 1) | -1.72 (active)
STARD4 (StAR related lipid transfer domain containing 4) | -1.72 (active)
COPS6 (COP9 signalosome subunit 6) | -1.34 (active)
DESI1 (desumoylating isopeptidase 1) | -0.277
SEPTIN10 (septin 10) | 1.1 (active)
OR2J3 (olfactory receptor family 2 subfamily J member 3) | -0.746
PCNX1 (pecanex 1) | 0.275
TMEM70 (transmembrane protein 70) | 1.3 (active)
BACE2 (beta-secretase 2) | -0.691
ISCA1 (iron-sulfur cluster assembly 1) | -2.44 (active)
EGFLAM (EGF like, fibronectin type III and laminin G domains) | 0.743
TM6SF2 (transmembrane 6 superfamily member 2) | -0.835
FAM20C (FAM20C golgi associated secretory pathway kinase) | -1.15 (active)
FAM107A (family with sequence similarity 107 member A) | -0.919
SSPOP (SCO-spondin, pseudogene) | -0.582
BCL6B (BCL6B transcription repressor) | 0.978
RCC1L (RCC1 like) | -0.374
LUM (lumican) | -1.27 (active)
TRAPPC9 (trafficking protein particle complex subunit 9) | -0.96
ADORA1 (adenosine A1 receptor) | -0.67
SETDB1 (SET domain bifurcated histone lysine methyltransferase 1) | -0.912
ERF (ETS2 repressor factor) | -0.85
ZNF239 (zinc finger protein 239) | 1.6 (active)
COL8A2 (collagen type VIII alpha 2 chain) | 0.351
SGMS1 (sphingomyelin synthase 1) | 0.888
BTBD1 (BTB domain containing 1) | 0.302
GSTM2 (glutathione S-transferase mu 2) | -1.54 (active)
NSUN4 (NOP2/Sun RNA methyltransferase 4) | -1.2 (active)
SH3GLB2 (SH3 domain containing GRB2 like, endophilin B2) | -0.322
NAMPT (nicotinamide phosphoribosyltransferase) | -1.88 (active)
MSX1 (msh homeobox 1) | -2.17 (active)
TMEM130 (transmembrane protein 130) | -1.41 (active)
AIF1L (allograft inflammatory factor 1 like) | -0.388
CRTAC1 (cartilage acidic protein 1) | 0.963
NMB (neuromedin B) | -1.02 (active)
VPS33A (VPS33A core subunit of CORVET and HOPS complexes) | 0.389
CEMIP (cell migration inducing hyaluronidase 1) | -0.0045
IGSF10 (immunoglobulin superfamily member 10) | -0.042
TMEM97 (transmembrane protein 97) | -1.63 (active)
GAREM1 (GRB2 associated regulator of MAPK1 subtype 1) | -0.909
MRC2 (mannose receptor C-type 2) | -0.837
HDGF (heparin binding growth factor) | 0.796
GBA3 (glucosylceramidase beta 3 (gene/pseudogene)) | -1.01 (active)
LRCH1 | -1.26 (active)
PDCD6 (programmed cell death 6) | -1.01 (active)
CYB5R3 (cytochrome b5 reductase 3) | -1.3 (active)
BRCA2 (BRCA2 DNA repair associated) | 0.983
UTP4 (UTP4 small subunit processome component) | -0.343
CETP (cholesteryl ester transfer protein) | -1.47 (active)
PENK (proenkephalin) | 2.25 (active)
MCCC2 (methylcrotonyl-CoA carboxylase subunit 2) | -0.53
CAMTA1 (calmodulin binding transcription activator 1) | 0.803
OOEP (oocyte expressed protein) | -1.18 (active)
NDUFB5 (NADH:ubiquinone oxidoreductase subunit B5) | -0.66
FMC1 (formation of mitochondrial complex V assembly factor 1) | -0.889
CORO2B (coronin 2B) | -0.221
OR4A5 (olfactory receptor family 4 subfamily A member 5) | 0.992
PNPO (pyridoxamine 5'-phosphate oxidase) | 0.891
CYB5R1 (cytochrome b5 reductase 1) | 0.657
DCTN2 (dynactin subunit 2) | 0.25
DMD (dystrophin) | -0.419
SPMIP4 (sperm microtubule inner protein 4) | -0.411
OR1E1 (olfactory receptor family 1 subfamily E member 1) | -0.36
MAD2L1 (mitotic arrest deficient 2 like 1) | 1.23 (active)
AADAC (arylacetamide deacetylase) | 1.45 (active)
IGDCC3 (immunoglobulin superfamily DCC subclass member 3) | 2.17 (active)
APBA3 (amyloid beta precursor protein binding family A member 3) | 1.52 (active)
LDB2 (LIM domain binding 2) | -2.19 (active)
FGF16 (fibroblast growth factor 16) | 0.821
NDUFA1 (NADH:ubiquinone oxidoreductase subunit A1) | -1.21 (active)
CHD3 (chromodomain helicase DNA binding protein 3) | -1.67 (active)
NCAPH (non-SMC condensin I complex subunit H) | 0.229
SOX13 (SRY-box transcription factor 13) | -0.0637
NIBAN2 (niban apoptosis regulator 2) | 1.01 (active)

A few values from the list.
Under “z-score vs non-targeting control”, MSX1 (msh homeobox 1) reads -2.17 (active)
For “z-score vs non-targeting control”, CEMIP (cell migration inducing hyaluronidase 1) reads -0.0045
LDB2 (LIM domain binding 2), z-score vs non-targeting control = -2.19 (active)
For “z-score vs non-targeting control”, NDUFB5 (NADH:ubiquinone oxidoreductase subunit B5) has -0.66
DCTN2 (dynactin subunit 2), z-score vs non-targeting control: 0.25
AIF1L (allograft inflammatory factor 1 like), z-score vs non-targeting control → -0.388
